Results taken from PMC10733469, “Antiviral activity of chrysin and naringenin against porcine epidemic diarrhea virus infection” (Frontiers in Veterinary Science, 2023).

Legend:
PEDV DY = experiment: Antiviral activity assay (MTT, virus inhibition rate), PEDV DY; conditions: therapeutic index, ratio CC50 / IC50
PEDV CV777 = experiment: Antiviral activity assay (MTT, virus inhibition rate), PEDV CV777; conditions: therapeutic index, ratio CC50 / IC50
[1] = system: foot-and-mouth disease virus (FMDV); conditions: BHK-21 cells, viral and post-viral entry experiments, range of 10.00–51.81 μM; cited from earlier work

SMILES	SI PEDV DY (PEDV DY)	SI PEDV CV777 (PEDV CV777)	SI values [1]
O=c1cc(-c2ccccc2)oc2cc(O)cc(O)c12 [Chrysin, chrysin]	33.63	38.1	–
O=C1C[C@@H](c2ccc(O)cc2)Oc2cc(O)cc(O)c21 [Naringenin, naringenin]	13.73	14.08	–
NC(=O)c1ncn([C@@H]2O[C@H](CO)[C@@H](O)[C@H]2O)n1 [Ribavirin, ribavirin, reference compound]	3.49	2.82	–
COc1ccc(-c2cc(=O)c3c(O)cc(O)c(-c4cc(-c5cc(=O)c6c(O)cc(O)cc6o5)ccc4OC)c3o2)cc1 [isoginkgetin]	–	–	greater than 4
O=c1cc(-c2ccc(O)c(O)c2)oc2cc(O)cc(O)c12 [luteolin]	–	–	greater than 4
